Results of unrelated studies side by side (data: NIAID ChemDB).

Common to all: tests in culture

A number after MIC or MFC names an inhibition level or a share of isolates. Lines come from different laboratories, so protocols vary. Percent inhibition refers to the dose given; in toxicity tests it is the harm to the cells. Blank or dashed fields: not listed here. ECn is the concentration giving n% inhibition of infection, replication or growth.

SMILES,endpoint,strain or isolate,cells,read by,species,tested at,result
Oc1ccccc1C=Nc1ccccc1O,MIC99,ATCC 24065,-,-,Cryptococcus gattii,-,4 µg/mL
O=c1[nH]c(=O)n([C@H]2C[C@H](O)[C@@H](CO)O2)cc1/C=C/Br,inhibition,Kawaguchi,HELF,plaque count,Varicella zoster virus,0.1 µg/mL,100%
O=C(Nc1ccc2c(O)c(N=Nc3ccc(N=Nc4ccc(S(=O)(=O)O)cc4)cc3)c(S(=O)(=O)O)cc2c1)c1ccccc1,inhibition,-,Human conjunctiva cells,cytopathic effect,Herpes simplex virus,10 µg/mL,0%
Cc1nc(NCCCCNc2ccnc3cc(Cl)ccc23)nc(-c2ccccc2)c1C(=O)OC(C)C,MIC99,VM-MCMMPI,-,-,Cryptococcus neoformans,-,8 µg/mL
Nc1nc2c(ncn2COCCO)c(=O)[nH]1,inhibition,Kawaguchi,HELF,plaque count,Varicella zoster virus,10 µg/mL,100%
C/C=C\[C@@H]1C[C@H](C(=O)O)N[C@H]1[C@@H](NC(C)=O)[C@](C)(CCC)OC,EC50,Isolate C33D,MDCK,plaque count,Influenza B virus,-,<0.01 µg/mL
Cc1nc(NCCCCNc2ccnc3cc(Cl)ccc23)nc(-c2ccccc2[N+](=O)[O-])c1C(=O)OC(C)C,MIC99,L-28/02,-,-,Cryptococcus gattii,-,8 µg/mL
CCc1cn([C@@H]2O[C@H](CO)[C@@H](O)[C@@H]2O)c(=O)[nH]c1=O,inhibition,Asahikawa,HELF,plaque count,Varicella zoster virus,10 µg/mL,0%
C=CCc1ccc(O)c(OC)c1,MIC90,2624,-,turbidity,Candida glabrata,-,500 µg/mL
O=S(=O)(O)c1cc(O)c2c(O)cc(S(=O)(=O)O)cc2c1,inhibition,-,Human amnion AV3 cells,cytopathic effect,Herpes simplex virus,50 µg/mL,80%
C=Cc1cn([C@@H]2O[C@H](CO)[C@@H](O)[C@@H]2O)c(=O)[nH]c1=O,inhibition,YS,HELF,plaque count,Varicella zoster virus,1 µg/mL,44%
CCO/N=C/c1ccc(OCCC2CCN(c3ccc(Cl)nn3)CC2)cc1,EC50,58750 (ICAM-1 receptor group 43),KB,neutral red,Rhinovirus,-,0.077 µM
COc1cc(-c2ccc(N=Nc3ccc4c(S(=O)(=O)O)cc(S(=O)(=O)O)c(N)c4c3O)c(OC)c2)ccc1N=Nc1ccc2c(S(=O)(=O)O)cc(S(=O)(=O)O)c(N)c2c1O,inhibition,-,Human conjunctiva cells,cytopathic effect,Herpes simplex virus,50 µg/mL,100%
CCC(CC)[C@H](NC(C)=O)[C@@H]1[C@H](O)[C@@H](C(=O)O)C[C@H]1N=C(N)N,EC50,Influenza A/Washington/897/80 (H3N2),MDCK,-,Influenza A virus,-,<0.01 µM
O=S(=O)(O)c1ccc2ccc(S(=O)(=O)O)cc2c1,inhibition,TYPE 3,Human embryonic lung cells,cytopathic effect,Adenovirus,5 µg/mL,10%
CCOC(=O)c1c(C)nc(OCCCNc2ccnc3cc(Cl)ccc23)nc1-c1ccccc1,MIC99,L-28/02,-,-,Cryptococcus gattii,-,8 µg/mL
O=S(=O)([O-])c1ccc(O)c2ccccc12,inhibition,-,Human conjunctiva cells,cytopathic effect,Herpes simplex virus,5 µg/mL,0%
CCOC(=O)/C=C/[C@H](C[C@@H]1CCNC1=O)NC(=O)[C@@H](CC(=O)[C@@H](NC(=O)c1cc(C)on1)C(C)C)Cc1ccc(F)cc1,EC50,Isolate 38,OHIO HELA-I,cytopathic effect / visual reading,Rhinovirus,-,0.02 µg/mL
NS(=O)(=O)O,inhibition,-,Human amnion AV3 cells,cytopathic effect,Herpes simplex virus,5 µg/mL,0%
O=c1[nH]c(=O)n([C@@H]2O[C@H](CO)[C@@H](O)[C@@H]2O)cc1/C=C/Cl,inhibition,OKA,HELF,plaque count,Varicella zoster virus,0.01 µg/mL,100%
O=C(Nc1cc(S(=O)(=O)[O-])cc2cc(S(=O)(=O)[O-])ccc12)c1ccccc1,inhibition,-,Human conjunctiva cells,cytopathic effect,Herpes simplex virus,10 µg/mL,0%
CCOC(=O)c1cnc(NCCCCNc2ccnc3cc(Cl)ccc23)nc1C,MIC99,L24/01,-,-,Cryptococcus gattii,-,8 µg/mL

A second listing of 3 rows from above:

SMILES | endpoint | strain or isolate | cells | read by | species | tested at | result
O=S(=O)(O)c1cc(O)c2c(O)cc(S(=O)(=O)O)cc2c1 | inhibition | - | Human amnion AV3 cells | cytopathic effect | Herpes simplex virus | 50 µg/mL | 80%
O=S(=O)(O)c1ccc2ccc(S(=O)(=O)O)cc2c1 | inhibition | TYPE 3 | Human embryonic lung cells | cytopathic effect | Adenovirus | 5 µg/mL | 10%
C=Cc1cn([C@@H]2O[C@H](CO)[C@@H](O)[C@@H]2O)c(=O)[nH]c1=O | inhibition | YS | HELF | plaque count | Varicella zoster virus | 1 µg/mL | 44%